Pooled drug test results. Numbers come from NIAID ChemDB, via PubChem.

Common to all: whole-cell or culture tests; species: Candida albicans; measure: MIC

Neighbouring rows are from separate reports. Two numbers with a dash give a range or band. An empty or dashed field is not shown.

compound,conditions,strain or isolate,result
CO[C@@H](n1ccnc1)[C@](O)(Cn1cncn1)c1ccccc1,,,>100 µg/mL
CCCCCCCC(O)CC(=O)CCc1ccc(O)c(OC)c1,,CN1A,750 µg/mL
COc1cc(O)c2c(c1)C(=O)c1c(cc3c(c1O)-c1c(cc(C)c(C(=O)NC(CO)C(=O)O)c1O)[C@H](OC1OC(C)C(O)C(OC4OCC(O)C(O)C4O)C1O)C3O)C2=O,,AD 83/004 (azole-resistant),4 µg/mL
N#CC1=C(N)OC2=C(CSc3ccc(Cl)cc32)C1c1cccc2ccccc12,,,100 µg/mL
Cc1nc(CC(=O)C(F)(F)F)oc1C,,,>50 µg/mL
Nc1[nH]c(=O)ncc1F,,B311 (drug-resistant),0.015 µg/mL
Cc1c(Cc2ccc(Cl)cc2)nc(SCCN2CCCC2)[nH]c1=O,,ATCC 10231,100 µg/mL
CCCCCCCCC(Cn1ccnc1)c1ccc(Br)cc1,,,10 µg/mL
Cn1ccc2c(O)c(C(=O)/C=C/c3ccccc3)ccc21,,,25 µg/mL
CCOc1ccc(C=Cc2nc3ccccc3n2CN(CC)CC)cc1,,,34.3 µM
COC(=O)C1CCc2sccc2C1=O,,,50 µg/mL
CC(=O)N1CCN(c2ccc(OC[C@H]3CO[C@](Cn4ccnc4)(c4ccc(Cl)cc4Cl)O3)cc2)CC1,,B59630,>4 µg/mL
C[C@@H]1Oc2ccccc2/C(=N/OCc2ccc(Cl)c(Cl)c2)[C@H]1n1ccnc1,,ATCC 10231,8 µg/mL
Clc1ccc(-c2nc3ccccc3n2Cc2nnc(Nc3cccc(Br)c3)s2)cc1,,,25 µg/mL
Clc1ccccc1C(c1ccccc1)(c1ccccc1)n1ccnc1,48 h,Clinical isolates,2 µg/mL
O=C(Nc1nc2ccc(NC(=O)[C@@H]3CCC[C@H](NCc4ccc5ccccc5c4)C3)cc2s1)C1CCCC1,,ATCC 44859,0.78 µM
CCCCCCCCOc1ccc(-c2ccc(C(=O)NC3CC(NCCN)CNC(=O)[C@@H]4[C@@H](O)[C@@H](C)CN4C(=O)[C@@H](CO)NC(=O)[C@H]([C@H](O)Cc4ccccc4)NC(=O)[C@@H]4C[C@@H](O)CN4C(=O)[C@H]([C@@H](C)O)NC3=O)cc2)cc1,,5810,0.5 µg/mL
CCCCC(Cn1ccnc1)c1c(Cl)cccc1Cl,,,100 µg/mL
C[C@@H]1Oc2ccccc2/C(=N/OCc2ccc(Cl)cc2Cl)[C@H]1n1cncn1,,ATCC 10231,8 µg/mL
CO[C@@H](n1cccn1)[C@](O)(Cn1ccnc1)c1ccc(F)cc1,,,>100 µg/mL
CCc1c(Cc2ccc(OC)c(OC)c2)nc(SCCN2CCCCC2)[nH]c1=O,,ATCC 10231,50 µg/mL
Cc1cc(Br)c2ncn([C@H](C)[C@](O)(Cn3cncn3)c3ccc(F)cc3F)c(=O)c2c1,,406 strains,0.07 µg/mL
CCCC(Cn1ccnc1)c1ccc(F)cc1,,,100 µg/mL
C[C@@H]1Oc2cc(Cl)ccc2/C(=N/OCc2ccc(Cl)cc2Cl)[C@H]1n1ccnc1,,ATCC 10231,16 µg/mL
Clc1ccc(-c2nc3ccccc3n2Cc2nnc(Nc3ccccc3Br)s2)cc1,,,12.5 µg/mL
CO[C@@H](n1cncn1)[C@](O)(Cn1cncn1)c1ccc(F)cc1,,,>100 µg/mL
C[C@@H]1Oc2ccccc2/C(=N/OCc2ccc(Br)cc2)[C@H]1n1ccnc1,,ATCC 10231,8 µg/mL
CCO[C@@H](n1cncn1)[C@@](O)(Cn1cncn1)c1ccc(Cl)cc1Cl,,,>100 µg/mL
CCN(CC)Cn1c(C=Cc2ccc([N+](=O)[O-])cc2)nc2ccccc21,,,17.1 µM
Cc1c(O)cccc1C(=O)N[C@@H](CSc1ccccc1)[C@H](O)CN1C[C@H]2CCCC[C@H]2C[C@H]1C(=O)NC(C)(C)C,,I181A,>64 µg/mL
C[C@@H]1Oc2ccccc2/C(=N/OCc2ccc(F)cc2)[C@H]1n1ccnc1,,ATCC 10231,8 µg/mL
NC(=O)C1=C(O)OC2=C(CSc3ccccc32)C1c1ccccc1,,,100 µg/mL
CN(C)C(=O)c1ccc2nc(NC(=O)CC3CCC[C@@H](NCc4ccc5ccccc5c4)C3)sc2c1,,,3.1 µg/mL
CC(=O)Oc1cccc(C(Br)C(Br)c2ccc([N+](=O)[O-])cc2[N+](=O)[O-])c1,,PCM 1409 PZH,75 µg/mL
Cc1cccc2ncn([C@H](C)[C@](O)(Cn3cncn3)c3ccc(F)cc3F)c(=O)c12,,406 strains,0.07 µg/mL
CN[C@@H]1[C@H](O[C@@H]2O[C@H](CO)[C@@H](O)[C@H](S(=O)(=O)O)[C@H]2O)[C@@H](O)[C@H](O[C@H]2c3cc(C)c(C(=O)N[C@H](CO)C(=O)O)c(O)c3-c3c(cc4c(c3O)C(=O)c3cc(OC)cc(O)c3C4=O)[C@@H]2O)O[C@@H]1C,,A9540,12.5 µg/mL
CCC(C)n1ncn(-c2ccc(N3CCN(c4ccc(OC[C@H]5CO[C@](Cn6cncn6)(c6ccc(Cl)cc6Cl)O5)cc4)CC3)cc2)c1=O,,Clinical isolates,0.898 µg/mL
COc1nc2c(c(-c3ccc4ccccc4c3)c1C#N)CSc1ccc(Cl)cc1-2,,,50 µg/mL
CCC(C)CC(C)CCCCCCCCC(=O)N[C@@H]1C[C@@H](O)[C@@H](O)NC(=O)[C@@H]2[C@@H](O)CCN2C(=O)[C@H]([C@@H](O)CCN)NC(=O)[C@H]([C@H](O)[C@@H](O)c2ccc(O)cc2)NC(=O)[C@@H]2C[C@@H](O)CN2C(=O)[C@H]([C@H](C)O)NC1=O,,40 isolates,0.12 µg/mL
CC(Cn1ccnc1)c1ccc(F)cc1,,,>100 µg/mL
Fc1ccc(Nc2nnc(Cn3c(-c4ccc(Cl)cc4)nc4ccccc43)s2)cc1,,,50 µg/mL
CCC(C)CC(C)CCCCCCCCC(=O)N[C@H]1C[C@@H](O)[C@H](NCCN)NC(=O)[C@@H]2[C@@H](O)CCN2C(=O)[C@H]([C@H](O)CCN)NC(=O)[C@H]([C@H](O)[C@@H](O)c2ccc(O)cc2)NC(=O)[C@@H]2C[C@@H](O)CN2C(=O)[C@H]([C@@H](C)O)NC1=O,,40 isolates azole-susceptible,0.4 µg/mL
COc1ccc(-c2c(C#N)c(OC)nc3c2CSc2ccccc2-3)cc1OC,,,25 µg/mL
Clc1ccc(-c2nc3ccccc3n2Cc2nnc(Nc3cccc(Cl)c3)s2)cc1,,,12.5 µg/mL
CCN(CC)Cn1c(C=Cc2ccccc2)nc2ccccc21,,,39.1 µM
CC(=O)c1ccc2sccc2c1O,,,50 µg/mL
C[C@@H](c1ncncc1F)[C@](O)(Cn1cncn1)c1ccc(F)cc1F,,406 strains,≤0.03 µg/mL
Cc1cc(C2CCCCC2)n(O)c(=O)c1,,,1–4 µg/mL
NC(=NC1CCCC1)c1ccc(-c2ccc(-c3ccc(C(N)=NC4CCCC4)cc3)o2)cc1,,ATCC 76615,12.5 µg/mL
N#CC1=C(N)OC2=C(CSc3ccccc32)C1c1ccc(-c2ccccc2)cc1,,,50 µg/mL
C[C@@H](n1cnc2cc(OCC(F)F)ccc2c1=O)[C@](O)(Cn1cncn1)c1ccc(F)cc1F,,406 strains,≤0.03 µg/mL
C[C@@H]1Oc2cc(Cl)ccc2/C(=N/OCc2ccc(Cl)cc2Cl)[C@H]1[n+]1cnc[nH]1,,ATCC 10231,16 µg/mL
CCC(C)CC(C)CCCCCCCCC(=O)N[C@H]1C[C@@H](O)[C@@H](O)NC(=O)[C@@H]2[C@@H](O)CCN2C(=O)[C@H]([C@H](O)CC(N)=O)NC(=O)[C@H]([C@H](O)[C@@H](O)c2ccc(O)cc2)NC(=O)[C@@H]2C[C@@H](O)CN2C(=O)[C@H]([C@@H](C)O)NC1=O,,40 isolates,>64 µg/mL
CO[C@@H](n1cncn1)[C@](O)(Cn1cncn1)c1ccc(Cl)cc1Cl,,,>100 µg/mL
CCCCC(Cn1ccnc1)c1ccc(F)cc1,,,100 µg/mL
Clc1ccccc1C(c1ccccc1)(c1ccccc1)n1ccnc1,,ATCC 10231,6 µg/mL
COc1ccc(/C=C/C(=O)c2ccc3c(ccn3C)c2O)cc1,,,>50 µg/mL
O=C(CN1C(=O)S/C(=C\c2ccc(-c3cc(=O)c4ccccc4o3)cc2)C1=O)c1ccc(Cl)cc1,,,12.5 µg/mL
CCCCCCCCC(Cn1ccnc1)c1ccccc1Cl,,,10 µg/mL
COC1C2OC3(OCC45CC6C(C)CCC6C6(C=O)CC4C=C(C(C)C)C65C(=O)O)OC2OC1C3O,,,16 µg/mL
O=c1cc(-c2ccccc2)oc2c1ccc1sccc12,,,>50 µg/mL
CCOC(=O)c1oc2cccc(OCCCNCc3cccnc3)c2c1C,,,1.6 µg/mL
CCCC(Cn1ccnc1)c1ccc(Cl)cc1,,,100 µg/mL
COc1ccc(OC)c(C(=O)CN2C(=O)S/C(=C\c3ccc(-c4cc(=O)c5ccccc5o4)cc3)C2=O)c1,,,25 µg/mL
CC(=O)Oc1cccc(/C=C/c2ccc([N+](=O)[O-])cc2[N+](=O)[O-])c1,,PCM 1409 PZH,100 µg/mL
CCN(CC)Cn1c(C=Cc2ccc(C)cc2)nc2ccccc21,,,18.7 µM
C[C@H](n1cnc2cc(Cl)ccc2c1=O)[C@](O)(Cn1cncn1)c1ccc(F)cc1F,,406 strains,1.25 µg/mL
C[C@@H](c1nc(-c2ccc(C#N)cc2)cs1)[C@](O)(Cn1cnnc1)c1ccc(F)cc1F,,A28235,≤0.007 µg/mL
CCCCC(Cn1ccnc1)c1ccc(Cl)cc1Cl,,,10 µg/mL

4 of the rows above, restated:

compound | conditions | strain or isolate | result
N#CC1=C(N)OC2=C(CSc3ccccc32)C1c1ccc(-c2ccccc2)cc1 |  |  | 50 µg/mL
CO[C@@H](n1ccnc1)[C@](O)(Cn1cncn1)c1ccccc1 |  |  | >100 µg/mL
CCC(C)CC(C)CCCCCCCCC(=O)N[C@H]1C[C@@H](O)[C@@H](O)NC(=O)[C@@H]2[C@@H](O)CCN2C(=O)[C@H]([C@H](O)CC(N)=O)NC(=O)[C@H]([C@H](O)[C@@H](O)c2ccc(O)cc2)NC(=O)[C@@H]2C[C@@H](O)CN2C(=O)[C@H]([C@@H](C)O)NC1=O |  | 40 isolates | >64 µg/mL
CO[C@@H](n1cccn1)[C@](O)(Cn1ccnc1)c1ccc(F)cc1 |  |  | >100 µg/mL